# In patent publication US20080050354A1, “PROTECTING BIOACTIVE FOOD INGREDIENTS USING MICROORGANISMS HAVING REDUCED METABOLIZING CAPACITY” (COMPAGNIE GERVAIS DANONE, priority 2004, published 2008):
# The chains behind the UniProt entries cited, without tags or fusion partners. Where a name states a change or a piece, a line headed by the entry shows the natural chain unless it says otherwise.
# UniProt P02662: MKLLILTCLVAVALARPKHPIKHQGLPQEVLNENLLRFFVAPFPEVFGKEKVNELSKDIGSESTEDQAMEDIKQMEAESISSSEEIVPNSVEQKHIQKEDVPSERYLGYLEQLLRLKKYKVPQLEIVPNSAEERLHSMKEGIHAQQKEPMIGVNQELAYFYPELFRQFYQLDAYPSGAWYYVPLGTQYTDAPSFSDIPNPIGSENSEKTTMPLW
# Legend:
# I-1630 = experiment: Fermentation of reconstituted milk + Lactium by pure strain; set-up: species or system S. thermophilus
# [1] = tested on: lactic ferment Hansen YC380; experiment: Fermentation of dairy mix containing peptide ingredient, residual peptides by LC-MS/MS; settings: Lactium 1.5 g/L added before fermentation; fermentation to pH 4.70
substance,measurement,setting,value
"peptide αS1 [91-100]: fragment 91-100 of casein αS1; peptide with relaxing properties contained in the milk protein hydrolyzate Lactium® (Ingredia) (YLGYLEQLLR; UniProt P02662 106-115, looked up, fragment)",% of peptide αS1 [91-100] remaining after fermentation,"I-1630; dairy mix with 1.5 g/L Lactium, strain I-1630, stop at pH 4.7",0.3%
same,consumption of peptide by the strain,I-1630; parent strain I-1630,consumes the peptide
same,bioactive peptide consumed after fermentation,[1],more than 95%
